Measurements published in patent publication US4158052A, “Oil-free adjuvant compositions containing N-acetyl-muramyl-L-alanyl-D-isoglutamine” (priority 1975, dated 1979).

Tested on: Hartley guinea pigs
Settings: guinea pig, in vivo

Compound: CC(=O)N[C@@H]1[C@@H](O[C@H](C)C(=O)N[C@@H](C)C(=O)N[C@H](CCC(=O)O)C(N)=O)[C@H](O)[C@@H](CO)O[C@H]1O [Mur-NAc-L-Ala-D-Glu-α-NH2, 2-(2-acetamido-2-deoxy-3-O-D-glucopyranosyl)-D-propionyl-L-alanyl-D-α-isoglutamine]
- Skin test, diameter of reaction: Purified tuberculin 50 IU: 0,0,0,0,0,0
